From article PMC8861615, “Searching for plant-derived antivirals against dengue virus and Zika virus” (Virology Journal, 2022)

Experiments:
[1] = system: ZIKV; type: cell-based, Zika virus; conditions: compounds; SI = ratio CC50/EC50, Vero
Description: (§1) Plant extracts were screened for their cytotoxic and anti-ZIKV and anti-DENV activities in Vero cells and BHK-21, respectively, in 96-well culture plates by observing the reduction of the viral cytopathic effect (CPE) and then measured by the MTT method. The crude extracts were dissolved in 4% DMSO aqueous solution, and their concentration was normalized to 50 µg/ml with Eagle's minimum essential medium (MEM) supplemented with 2% fetal bovine serum (FBS). Briefly, 8 × 10^3 of BHK-21 cells or 1 × 10^4 of Vero cells per well were seeded in a 96-well plate and incubated for 24 h at 37 °C and 5% CO2 atmosphere. Extract solution and virus suspension, at a multiplicity of infection (m.o.i.) of 2, for both viruses, were simultaneously added on 70% confluent monolayers. Each extract was tested in duplicate. Controls of untreated infected and untreated uninfected cells incubated with or without DMSO were included. Interferon-α 2B, in concentrations of 500 and 1000 IU/mL, was used as a positive antiviral control in all antiviral assays. […] Briefly, the supernatants were removed, and 30 µl of a stock solution of MTT (2 mg/ml) dissolved in phosphate-buffered saline were added to each well. After 90 min of incubation at 37 °C, 130 µl of DMSO were added to each well, and plates were homogenized for 5 min at 500 rpm. The absorbance values of each reaction were measured in an ELISA reader (Spectra Max, Molecular Devices, USA) at λ540 nm. […] Cytotoxicity (CC50) and anti-ZIKV/DENV-2 (CE50) experiments were performed in duplicate and repeated at least three times.
(§2) Viral CPE and cell viability were observed by optic microscopy and measured by the MTT method as previously described. […] The experiments were performed in duplicate and repeated at least three times.
(§3) Bioassay data were normalized to untreated uninfected cells and the EC50 and CC50 values were obtained using GraphPad Prism 5 based on nonlinear logistic regression of the experimental dose–response curves. […] The CC50 and EC50 values ratio was used as a selectivity index (SI).

[2] = system: DENV-2; assay: Anti-DENV-2 activity by viral CPE reduction and MTT method in BHK-21 cells; type: cell-based, Dengue virus serotype 2; conditions: compounds; SI = ratio CC50/EC50, BHK-21
Description: as §1, §2, §3

`CC(=O)O[C@H]1[C@H]2c3cc4c(cc3CN3CCC(=C[C@@H]1O)[C@H]23)OCO4` [1-acetyl-lycorine] was tested, and the “ZIKV SI” value [1] was 1.0.
In the case of `O[C@H]1[C@H]2c3cc4c(cc3CN3CCC(=C[C@@H]1O)[C@H]23)OCO4` [Lycorine], the “ZIKV SI” value [1] is reported as 3.8 and the “DENV-2 SI” value [2] is reported as 8.6.
`O=C1NC2C(=C[C@H](O)[C@@H](O)[C@H]2OC2OCC(O)C(O)C2O)c2cc3c(c(O)c21)OCO3` (stereo partly drawn) [Narciclasine-4-O-β-D-xylopyranoside, narciclasine-4-O-β-D-xylopyranoside] was tested, and the “ZIKV SI” value [1] was 6.5 and the “DENV-2 SI” value [2] was 4.9.
For `CO[C@@H]1C=C[C@@]23c4cc5c(cc4C(O)O[C@H]2CN(C)[C@H]3C1)OCO5` (stereo partly shown) [Pretazettine], the “ZIKV SI” value [1] was 3.8 and the “DENV-2 SI” value [2] was 6.8.
